Measurements from ChEMBL document CHEMBL1151434 (Antimicrob Agents Chemother, 2007).
≈ marks a conversion by molar mass, not a printed value.

System: Chlamydia psittaci 6BC
Experiment: Antibacterial activity against 0.01 MOI wild type Chlamydia psittaci 6BC BCRB infected in mouse L2 cells treated 2 hrs after infection measured on day 7 by plaque assay
Format: functional

## O=C(N[C@H](CO)[C@H](O)c1ccc([N+](=O)[O-])cc1)C(Cl)Cl [CHLORAMPHENICOL]
  MIC: 0.4 µg/mL (≈ 1.24 µM)
